Measured values: patent US4965261A, “Substituted benzoxazinorifamycin derivative and antibacterial agent containing the same” (Kanegafuchi Kagaku Kogyo Kabushiki Kaisha, priority 1988, dated 1990)

Tested on: Mycobacterium tuberculosis H37 Rv
Assay: Therapeutic effect on mice experimentally infected with tuberculosis (FIG. 1, groups of 20 mice)
Conditions: for 38 days from the beginning of the treatment; oral, 200 μg/mouse, once a day, six days a week

Compound: CCOc1c(N2CCN(CC(C)C)CC2)ccc2nc3c4c5c6c(C)c(O)c4c(=O)c(c-3oc12)NC(=O)C(C)=CC=CC(C)C(O)C(C)C(O)C(C)C(OC(C)=O)C(C)C(OC)C=COC(C)(O6)C5=O (stereo not shown) [Derivative No. 8]
- dead mice: there was not observed any dead mouse
